Compound potency records, mixed from different reports. Data source: NIAID ChemDB in PubChem.

Shared fields: growth or infection tests; species: Mycobacterium kansasii

Rows are shuffled and stem from different studies. Blank or dashed fields: not listed here. MIC50, MIC90 and the like: level of inhibition, or share of isolates inhibited.

SMILES	setting	strain or isolate	read by	measure	value
O=C(Nc1ccc(Cl)cc1)c1ccc(Cl)cc1OS(=O)(=O)c1ccccc1	21 d	235/80		MIC	16 µM
O=C(NNC(=O)c1ccncc1)Nc1cc(Cl)cc(Cl)c1	7 d	My 6509/96	broth dilution	MIC100	125 µM
COc1ccc2oc(=O)n(-c3ccc(C)cc3)c(=S)c2c1	21 d	6509/96		MIC	8 µM
O=C(Oc1ccc(Cl)cc1C(=O)Nc1ccc(Cl)cc1)c1cnccn1	7 d	235/80		MIC	2 µM
O=C(Oc1cc(Cl)ccc1C(=O)Nc1ccc(C(F)(F)F)cc1)c1ccccc1	14 d	235/80	broth dilution	MIC	2 µM
Fc1ccc2oc(=S)n(-c3ccccc3)c(=S)c2c1	14 d	6509/96		MIC	1 µM
O=C(OCc1ccccc1)N1CCC[C@H]1c1cnc(-c2ccc([N+](=O)[O-])cc2)[nH]1	14 d	My 235/80		MIC	125 µM
O=C(Oc1cc(Cl)ccc1C(=O)Nc1ccc(F)cc1)c1cnccn1	21 d	235/80		MIC	4 µM
N/C(=N\N=C\c1ccccc1O)SCc1ccc(Br)cc1	14 d	ATCC 12478	broth dilution	MIC	32 µM
O=C(Oc1cc(Cl)ccc1C(=O)Nc1cccc(Br)c1)c1ccccc1	21 d	235/80	broth dilution	MIC	4 µM
O=C(Nc1ccc(C(F)(F)F)cc1)c1cc(Cl)ccc1OS(=O)(=O)c1ccccc1	7 d	6509/96		MIC	125 µM
O=C(NNC(=O)c1ccncc1)Nc1ccc(Br)cc1F	21 d	My 235/80	broth dilution	MIC100	>125 µM
N/C(=N\N=C\c1cc(Cl)cc(Cl)c1O)SCc1cccc(Cl)c1	14 d	ATCC 12478	broth dilution	MIC	32 µM
NNC(=O)c1ccncc1	21 d	My 6509/96	broth dilution	MIC100	8 µM
COC(=O)c1cnccn1	21 d	6509/96		MIC	500 µM
N/C(=N\N=C\c1cc(Cl)ccc1O)SCc1ccc(Cl)cc1	21 d	ATCC 12478	broth dilution	MIC	32 µM
O=C(Oc1cc(Cl)ccc1C(=O)Nc1ccc(Cl)cc1)c1cnccn1	14 d	6509/96		MIC	2 µM
N/C(=N\N=C\c1ccccc1O)SCc1cccc(Cl)c1	14 d	ATCC 12478	broth dilution	MIC	62.5 µM
C[C@@H](NC(=O)OCc1ccccc1)c1cnc(-c2ccc([N+](=O)[O-])cc2)[nH]1	14 d	My 235/80		MIC	>125 µM
COc1ccc2oc(=O)n(-c3ccc(Cl)cc3)c(=S)c2c1	14 d	My 235/80		MIC	16 µM
CC[C@@H](C)[C@H](NC(=O)OCc1ccccc1)c1cnc(-c2ccc([N+](=O)[O-])cc2)[nH]1	14 d	My 235/80		MIC	62.5 µM
O=C(Oc1ccc(Cl)cc1C(=O)Nc1ccc(Cl)c(Cl)c1)c1cnccn1	21 d	235/80		MIC	4 µM
O=C(Nc1ccc(F)cc1)c1ccc(Cl)cc1OS(=O)(=O)c1ccccc1	14 d	235/80		MIC	32 µM
O=C(OCc1ccccc1)N1CCC[C@H]1c1cnc(-c2ccccc2)[nH]1	21 d	My 6509/96		MIC	62.5 µM
O=C(Oc1ccc(Cl)cc1C(=O)Nc1cccc(Cl)c1)c1cnccn1	14 d	235/80		MIC	4 µM
N/C(=N\N=C\c1ccccc1)SCc1cccc(Cl)c1	14 d	6509/96	broth dilution	MIC	62.5 µM
CC(C)[C@H](NC(=O)OCc1ccccc1)c1cnc(-c2ccccc2)[nH]1	7 d	My 6509/96		MIC	32 µM
O=C(Oc1ccc(Cl)cc1C(=O)Nc1ccc(Br)cc1)c1ccccc1	21 d	235/80	broth dilution	MIC	4 µM
O=C(NNC(=O)c1ccncc1)Nc1ccc(Br)c(C(F)(F)F)c1	21 d	My 235/80	broth dilution	MIC100	>125 µM
COc1ccc2oc(=O)n(-c3cccc(F)c3)c(=S)c2c1	21 d	My 235/80		MIC	32 µM
N/C(=N\N=C\c1ccccc1O)SCc1ccc(Cl)cc1	14 d	6509/96	broth dilution	MIC	32 µM
O=C(Nc1cccc(Br)c1)c1cc(Cl)ccc1OS(=O)(=O)c1ccccc1	14 d	235/80		MIC	16 µM
O=C(N[C@@H](Cc1ccccc1)c1cnc(-c2ccc([N+](=O)[O-])cc2)[nH]1)OCc1ccccc1	14 d	My 235/80		MIC	32 µM
O=C(Oc1cc(Cl)ccc1C(=O)Nc1ccc(Br)cc1)c1ccccc1	14 d	6509/96	broth dilution	MIC	4 µM
Cc1ccc2oc(=O)n(-c3ccc(Cl)cc3)c(=S)c2c1	14 d	My 235/80		MIC	2 µM
O=C(Nc1ccc(Cl)cc1)c1cc(Cl)ccc1OS(=O)(=O)c1ccccc1	21 d	6509/96		MIC	8 µM
O=C(Oc1cc(Cl)ccc1C(=O)Nc1cccc(Cl)c1)c1ccccc1	14 d	235/80	broth dilution	MIC	4 µM
O=C(Oc1ccc(Cl)cc1C(=O)Nc1ccc(F)cc1)c1cnccn1	14 d	235/80		MIC	8 µM
O=C(Nc1ccc(Cl)c(Cl)c1)c1ccc(Cl)cc1OS(=O)(=O)c1ccccc1	21 d	6509/96		MIC	8 µM
O=C(Oc1ccc(Cl)cc1C(=O)Nc1ccc(Br)cc1)c1cnccn1	21 d	6509/96		MIC	4 µM
O=C(Nc1ccc(Br)cc1)c1ccc(Br)cc1OS(=O)(=O)c1ccccc1	7 d	235/80		MIC	8 µM

A second listing of 2 rows from above:

| SMILES | setting | strain or isolate | read by | measure | value |
|---|---|---|---|---|---|
| O=C(NNC(=O)c1ccncc1)Nc1ccc(Br)cc1F | 21 d | My 235/80 | broth dilution | MIC100 | >125 µM |
| N/C(=N\N=C\c1ccccc1O)SCc1ccc(Br)cc1 | 14 d | ATCC 12478 | broth dilution | MIC | 32 µM |